Results as given in patent publication US20230158060.

What was measured:
[1] = target: purified MERS-CoV N protein, K9N4V7
[2] = target: C1INH

B1: purified MASP-2 (protein)
chain: TPLGPKWPEPVFGRLASPGFPGEYANDQERRWTLTAPPGYRLRLYFTHFDLELSHLCEYDFVKLSSGAKVLATLCGQESTDTERAPGKDTFYSLGSSLDITFRSDYSNEKPFTGFEAFYAAEDIDECQVAPGEAPTCDHHCHNHLGGFYCSCRAGYVLHRNKRTCSALCSGQVFTQRSGELSSPEYPRPYPKLSSCTYSISLEEGFSVILDFVESFDVETHPETLCPYDFLKIQTDREEHGPFCGKTLPHRIETKSNTVTITFVTDESGDHTGWKIHYTSTAQPCPYPMAPPNGHVSPVQAKYILKDSFSIFCETGYELLQGHLPLKSFTAVCQKDGSWDRPMPACSIVDCGPPDDLPSGRVEYITGPGVTTYKAVIQYSCEETFYTMKVNDGKYVCEADGFWTSSKGEKSLPVCEPVCGLSARTTGGRIYGGQKAKPGDFPWQVLILGGTTAAGALLYDNWVLTAAHAVYEQKHDASALDIRMGTLKRLSPHYTQAWSEAVFIHEGYTHDAGFDNDIALIKLNNKVVINSNITPICLPRKEAESFMRTDDIGTASGWGLTQRGFLARNLMYVDIPIVDHQKCTAAYEKPPYPRGSVTANMLCAGLESGGKDSCRGDSGGALVFLDSETERWFVGGIVSWGSMNCGEAGQYGVYTKVINYIPWIENIISDF
- C4 cleavage (immunoblot) [1]: MERS-CoV N also found potentiate the C4 cleavage
- SARS-CoV-potentiated C4 hydrolysis (immunoblot) [2]: blocked SARS-CoV-potentiated C4 hydrolysis
